Vif 1203: effect of single changes on growth against APOBEC3G

From the data files of Langley et al. 2025, preprint, doi:10.1101/2025.10.20.683452.

Vif of 1203 (a subtype B primary isolate), residues 12-115; positions count from the first residue of the whole protein:
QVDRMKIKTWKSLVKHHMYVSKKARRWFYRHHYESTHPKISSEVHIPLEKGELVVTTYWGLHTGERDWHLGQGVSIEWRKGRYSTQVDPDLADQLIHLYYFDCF

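Pooled viruses with one designed change each in Vif went through two 72 h rounds in SupT1 cells expressing APOBEC3G. Each of three replicates was sequenced after round two and set against the merged round-one pool.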

Scale: log2 enrichment, wild type = 0; negative values mean that the variant was depleted.
Substitutions are written as wild-type residue, site number, new residue.
All changes here are to isoleucine.
The median of three replicates is given.
Input reads are the counts in the merged round-one pool, before selection.
The authors note that some positive scores may be noise, and some enriched variants failed when tested singly.
Not every substitution is listed.
Replicates agree only moderately (rank correlation about 0.4-0.65); scores from under about 50 input reads tend to be too high.

With R15I (input reads 19) the assay gave 0.56.
With M16I (input reads 509) the assay gave -0.99.
With K17I (input reads 43) the assay gave -3.48.
With K19I (input reads 19) the assay gave 1.00.
With S23I (input reads 600) the assay gave -1.88.
With K26I (input reads 168) the assay gave 1.57.
With H27I (input reads 716) the assay gave 0.80.
With M29I (input reads 229) the assay gave -1.73.
With Y30I (input reads 45) the assay gave -0.37.
With V31I (input reads 28) the assay gave -3.26.
With F39I (input reads 128) the assay gave -0.78.
With Y40I (input reads 332) the assay gave -1.90.
With H42I (input reads 273) the assay gave -1.85.
With Y44I (input reads 178) the assay gave -2.50.
With S46I (input reads 19) the assay gave 0.52.
With H48I (input reads 473) the assay gave -2.27.
With P49I (input reads 123) the assay gave -4.98.
With K50I (input reads 16) the assay gave -0.50.
With V55I (input reads 114) the assay gave -0.48.
With L59I (input reads 595) the assay gave -2.90.
With L64I (input reads 137) the assay gave -2.07.
With T67I (input reads 209) the assay gave -2.05.
With L72I (input reads 222) the assay gave -2.93.
With T74I (input reads 624) the assay gave 0.36.
With G75I (input reads 192) the assay gave -1.70.
With E76I (input reads 764) the assay gave -1.55.
With D78I (input reads 269) the assay gave -2.16.
With W79I (input reads 204) the assay gave -1.46.
With L81I (input reads 63) the assay gave 3.44.
With G82I (input reads 368) the assay gave 1.04.
With V85I (input reads 34) the assay gave -0.53.
With W89I (input reads 796) the assay gave -2.42.
With S95I (input reads 185) the assay gave -1.44.
With T96I (input reads 82) the assay gave -1.49.
With L102I (input reads 75) the assay gave 1.11.
With A103I (input reads 676) the assay gave -3.06.
With Q105I (input reads 250) the assay gave -1.92.
With L106I (input reads 195) the assay gave -2.50.
With Y110I (input reads 30) the assay gave 0.90.
With F112I (input reads 298) the assay gave -1.27.
With D113I (input reads 100) the assay gave -2.95.

Extract of 2 entries:

| mutation | input reads | median log2 enrichment |
|---|---|---|
| G75I | 192 | -1.70 |
| S46I | 19 | 0.52 |